PubChem BioAssay AID504761 | Drosophila RNAi Screening Center | 2011
Aim: 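Genome-wide fly cell screen for genes dengue virus requires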 (primary screen). System: D.Mel-2 cells from Drosophila. Reagent: long dsRNA against Drosophila genes. Treatment: infection with dengue virus type 2; dose and infection time not stated. Detection: 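Cells stained for dengue envelope protein and imaged; percent of infected cells per well on duplicate plates, ranked by infection, with stained nuclei counted for cell number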. Scale: infection score: higher = more virus-infected cells. Call rule: 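Low infection ranks in the two replicates (chance level up to 0.065) followed by a retest with a 1.5-fold or larger significant decrease, p below 0.05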. Meaning of the calls: active = confirmed: knock-down lowers infection; inactive = not picked or not confirmed.
The screen tested about 22,000 reagents; shown is a random part of those with a known target gene and a result. Over the whole deposit, 116 (0.52%) are marked active. 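Calls depend on retest data that are not deposited; infection was ranked per plate without normalising between plates; the unit of the infection score is not given.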 A plus sign joins genes that one reagent is predicted to hit. Further read-outs or replicates are left out here. Reagent sequences are not shown. Not given: the amount of reagent, the time to read-out.

infection score, replicate 1, by target gene and reagent
alpha-Est8: DRSC12620 4.64 inactive
ed: DRSC00350 1.1 inactive; DRSC00438 2.51 inactive; DRSC00439 1.59 inactive; DRSC00478 2.4 inactive
CG14785: DRSC18604 14.1 inactive
ssp6: DRSC08791 6.01 inactive; DRSC10677 4.06 inactive; DRSC27709 8.5 inactive
CG13771: DRSC02277 1.5 inactive
eIF3i: DRSC03464 5.53 inactive
ssp2: DRSC11052 6.36 inactive; DRSC23906 5.2 inactive
lectin-33A: DRSC02529 8.08 inactive; DRSC22116 1.23 inactive
unc-104: DRSC07710 4.18 inactive
Pstk + CG14210 + Tim9b: DRSC19566 8.02 inactive; DRSC29021 3.5 inactive
CG17122: DRSC10245 9.84 inactive; DRSC28648 21.2 inactive
CG18789: DRSC02696 5.97 inactive
Pif2: DRSC12525 6.43 inactive; DRSC26251 4.56 inactive

Reformatted: results already given
CG17122 [DRSC10245] | infection score, replicate 1 = 9.84; Outcome = inactive
CG17122 [DRSC28648] | infection score, replicate 1 = 21.2; Outcome = inactive
